According to PubChem BioAssay AID1445 (SRMLSC, 2008):
The entries are a selection whose mix differs from that of the whole data set. Potency and affinity values are given separately. Active and inactive are the calls of the source.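 Rule for the calls: active = primary inhibition above the hit cutoff, then over 50% inhibition at one or more dose response concentrations (cut at about 23% in these data, passing the limit was not always enough); inconclusive = conflicting primary data, or primary hits not chosen for dose response; inactive = low primary inhibition, or under 50% at every dose.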

Amino acid sequences for entries named in this document (tags omitted).
UniProt O96935, whole entry: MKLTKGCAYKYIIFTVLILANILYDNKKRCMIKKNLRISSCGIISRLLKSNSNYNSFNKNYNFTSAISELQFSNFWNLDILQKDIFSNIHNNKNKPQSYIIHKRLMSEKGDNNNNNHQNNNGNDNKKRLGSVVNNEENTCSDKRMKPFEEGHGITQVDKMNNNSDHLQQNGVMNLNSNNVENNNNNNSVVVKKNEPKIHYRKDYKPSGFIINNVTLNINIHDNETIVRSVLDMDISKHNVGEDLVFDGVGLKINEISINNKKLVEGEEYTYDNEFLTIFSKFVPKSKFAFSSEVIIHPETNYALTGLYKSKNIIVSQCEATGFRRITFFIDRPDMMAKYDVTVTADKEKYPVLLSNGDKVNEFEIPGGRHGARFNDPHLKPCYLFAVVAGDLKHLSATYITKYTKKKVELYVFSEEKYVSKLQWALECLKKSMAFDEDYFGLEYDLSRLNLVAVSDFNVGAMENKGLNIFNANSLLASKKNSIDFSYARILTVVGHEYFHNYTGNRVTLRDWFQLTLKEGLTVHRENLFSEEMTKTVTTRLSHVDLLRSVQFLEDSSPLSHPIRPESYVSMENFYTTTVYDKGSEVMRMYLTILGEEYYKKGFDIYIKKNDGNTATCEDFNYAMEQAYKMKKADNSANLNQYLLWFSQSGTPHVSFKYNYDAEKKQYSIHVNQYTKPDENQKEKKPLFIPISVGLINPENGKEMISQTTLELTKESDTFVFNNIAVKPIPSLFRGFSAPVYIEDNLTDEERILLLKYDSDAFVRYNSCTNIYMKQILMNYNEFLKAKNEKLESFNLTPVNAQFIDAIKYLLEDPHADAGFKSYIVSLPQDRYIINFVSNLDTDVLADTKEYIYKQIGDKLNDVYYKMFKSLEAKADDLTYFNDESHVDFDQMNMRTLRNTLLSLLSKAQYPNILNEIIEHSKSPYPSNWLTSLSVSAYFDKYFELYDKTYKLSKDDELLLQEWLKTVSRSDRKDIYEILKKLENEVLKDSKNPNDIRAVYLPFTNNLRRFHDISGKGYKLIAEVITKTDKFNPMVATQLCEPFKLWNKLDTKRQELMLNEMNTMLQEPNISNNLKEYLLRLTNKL

molecular target: Aminopeptidase N (Plasmodium falciparum (isolate 3D7)) (UniProt O96935); experiment: P. falciparum M1AAP inhibitors, biochemical, fluorogenic H-Leu-NHMec substrate, 1536-well (AID 1445); conditions: recombinant M1AAP, H-Leu-NHMec fluorogenic kinetic assay; at 30 µM; hits give high values;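 note: plate controls were DMSO full reaction for no effect and no enzyme background for full effect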

Compound | inhibition
O=C(NCC1(N2CCCCC2)CCCCC1)c1cccc([N+](=O)[O-])c1 | inactive: 5.54%
N#CC1(Nc2ccccc2)CCN(CCc2ccccc2)CC1 | inactive: 3.18%
COc1ccc(NC2CCN(C(=O)OC(C)(C)C)CC2)cc1 | inactive: 7.68%
CN1CCN(CCOC(=O)C(O)(c2ccccc2)c2ccccc2)CC1 | inactive: 5.38%
O=C(NCC1(N2CCOCC2)CCCCC1)c1cc(=O)[nH]c2ccccc12 | inactive: 4.61%
COc1ccc(CN(CCCl)CCCl)cc1Cl | inactive: 6.92%
CN(C)c1cccc(C(=O)NCC2(N3CCCCC3)CCCCC2)c1 | inactive: 2.08%
CC(C)c1ccc(NC2CCN(C(=O)OC(C)(C)C)CC2)cc1 | inactive: 0.37%
COc1ccc(C(=O)NCC2(N3CCCCC3)CCCCC2)c(OC)c1OC | inactive: 5.12%
O=C(NCC1(N2CCOCC2)CCCCC1)c1cc2ccccc2o1 | inactive: -2.4%
CCOC(=O)N1CCC(Nc2ccc(OC)cc2)CC1 | inactive: 2.03%
N#CC1(Nc2ccccc2)CCN(Cc2ccccc2)CC1 | inactive: 6.08%
O=C(OC1CN2CCC1CC2)C1c2ccccc2Oc2ccccc21 (centres undefined) | inactive: 0.77%
CCOc1ccc(C)cc1CN(CCCl)CCCl | inactive: -0.21%
COc1ccc(NC2CCN(CCc3ccccc3)CC2)c(OC)c1 | inactive: 5.03%
Cc1ccc(OCC(C)C)c(CN(CCCl)CCCl)c1 | inactive: 0.49%
Fc1ccccc1NC1CCN(Cc2ccccc2)CC1 | inactive: 3.06%
CCN1CCC(Nc2cccc(F)c2)CC1 | inactive: -0.68%
CN(C)c1ccc(C(=O)NCC2(N3CCCCC3)CCCCC2)cc1 | inactive: 6.83%
CCOc1ncccc1C(=O)NCC1(N2CCOCC2)CCCCC1 | inactive: 5.93%
CC(C)(C)OC(=O)N1CCC(Nc2ccccc2)CC1 | inactive: -0.03%
CCC(CO)(C(=O)OC1CN2CCC1CC2)c1ccccc1 (centres undefined) | inactive: 6.18%
COc1cc(OC)cc(C(=O)NCC2(N3CCOCC3)CCCCC2)c1 | inactive: 2.15%
CCCOc1ccc(C)cc1CN(CCCl)CCCl | inactive: 4.5%
COc1ccc(C(=O)NCC2(N3CCOCC3)CCCCC2)cc1OC | inactive: -0.25%
N/C(=N\O)c1c(N)no[n+]1[O-] | inactive: 1.29%
O=C(OC1CN2CCC1CC2)C1c2ccccc2C=Cc2ccccc21 (centres undefined) | inactive: 7.7%
N#Cc1ccc(C(=O)NCC2(N3CCCCC3)CCCCC2)cc1 | inactive: 3.89%
c1ccc(CN2CCC(Nc3ccccc3)CC2)cc1 | inactive: 1.38%
